Source: US20260015677

The chains behind the UniProt entries cited, without tags or fusion partners. Where a name states a change or a piece, a line headed by the entry shows the natural chain unless it says otherwise.
UniProt J9VI03: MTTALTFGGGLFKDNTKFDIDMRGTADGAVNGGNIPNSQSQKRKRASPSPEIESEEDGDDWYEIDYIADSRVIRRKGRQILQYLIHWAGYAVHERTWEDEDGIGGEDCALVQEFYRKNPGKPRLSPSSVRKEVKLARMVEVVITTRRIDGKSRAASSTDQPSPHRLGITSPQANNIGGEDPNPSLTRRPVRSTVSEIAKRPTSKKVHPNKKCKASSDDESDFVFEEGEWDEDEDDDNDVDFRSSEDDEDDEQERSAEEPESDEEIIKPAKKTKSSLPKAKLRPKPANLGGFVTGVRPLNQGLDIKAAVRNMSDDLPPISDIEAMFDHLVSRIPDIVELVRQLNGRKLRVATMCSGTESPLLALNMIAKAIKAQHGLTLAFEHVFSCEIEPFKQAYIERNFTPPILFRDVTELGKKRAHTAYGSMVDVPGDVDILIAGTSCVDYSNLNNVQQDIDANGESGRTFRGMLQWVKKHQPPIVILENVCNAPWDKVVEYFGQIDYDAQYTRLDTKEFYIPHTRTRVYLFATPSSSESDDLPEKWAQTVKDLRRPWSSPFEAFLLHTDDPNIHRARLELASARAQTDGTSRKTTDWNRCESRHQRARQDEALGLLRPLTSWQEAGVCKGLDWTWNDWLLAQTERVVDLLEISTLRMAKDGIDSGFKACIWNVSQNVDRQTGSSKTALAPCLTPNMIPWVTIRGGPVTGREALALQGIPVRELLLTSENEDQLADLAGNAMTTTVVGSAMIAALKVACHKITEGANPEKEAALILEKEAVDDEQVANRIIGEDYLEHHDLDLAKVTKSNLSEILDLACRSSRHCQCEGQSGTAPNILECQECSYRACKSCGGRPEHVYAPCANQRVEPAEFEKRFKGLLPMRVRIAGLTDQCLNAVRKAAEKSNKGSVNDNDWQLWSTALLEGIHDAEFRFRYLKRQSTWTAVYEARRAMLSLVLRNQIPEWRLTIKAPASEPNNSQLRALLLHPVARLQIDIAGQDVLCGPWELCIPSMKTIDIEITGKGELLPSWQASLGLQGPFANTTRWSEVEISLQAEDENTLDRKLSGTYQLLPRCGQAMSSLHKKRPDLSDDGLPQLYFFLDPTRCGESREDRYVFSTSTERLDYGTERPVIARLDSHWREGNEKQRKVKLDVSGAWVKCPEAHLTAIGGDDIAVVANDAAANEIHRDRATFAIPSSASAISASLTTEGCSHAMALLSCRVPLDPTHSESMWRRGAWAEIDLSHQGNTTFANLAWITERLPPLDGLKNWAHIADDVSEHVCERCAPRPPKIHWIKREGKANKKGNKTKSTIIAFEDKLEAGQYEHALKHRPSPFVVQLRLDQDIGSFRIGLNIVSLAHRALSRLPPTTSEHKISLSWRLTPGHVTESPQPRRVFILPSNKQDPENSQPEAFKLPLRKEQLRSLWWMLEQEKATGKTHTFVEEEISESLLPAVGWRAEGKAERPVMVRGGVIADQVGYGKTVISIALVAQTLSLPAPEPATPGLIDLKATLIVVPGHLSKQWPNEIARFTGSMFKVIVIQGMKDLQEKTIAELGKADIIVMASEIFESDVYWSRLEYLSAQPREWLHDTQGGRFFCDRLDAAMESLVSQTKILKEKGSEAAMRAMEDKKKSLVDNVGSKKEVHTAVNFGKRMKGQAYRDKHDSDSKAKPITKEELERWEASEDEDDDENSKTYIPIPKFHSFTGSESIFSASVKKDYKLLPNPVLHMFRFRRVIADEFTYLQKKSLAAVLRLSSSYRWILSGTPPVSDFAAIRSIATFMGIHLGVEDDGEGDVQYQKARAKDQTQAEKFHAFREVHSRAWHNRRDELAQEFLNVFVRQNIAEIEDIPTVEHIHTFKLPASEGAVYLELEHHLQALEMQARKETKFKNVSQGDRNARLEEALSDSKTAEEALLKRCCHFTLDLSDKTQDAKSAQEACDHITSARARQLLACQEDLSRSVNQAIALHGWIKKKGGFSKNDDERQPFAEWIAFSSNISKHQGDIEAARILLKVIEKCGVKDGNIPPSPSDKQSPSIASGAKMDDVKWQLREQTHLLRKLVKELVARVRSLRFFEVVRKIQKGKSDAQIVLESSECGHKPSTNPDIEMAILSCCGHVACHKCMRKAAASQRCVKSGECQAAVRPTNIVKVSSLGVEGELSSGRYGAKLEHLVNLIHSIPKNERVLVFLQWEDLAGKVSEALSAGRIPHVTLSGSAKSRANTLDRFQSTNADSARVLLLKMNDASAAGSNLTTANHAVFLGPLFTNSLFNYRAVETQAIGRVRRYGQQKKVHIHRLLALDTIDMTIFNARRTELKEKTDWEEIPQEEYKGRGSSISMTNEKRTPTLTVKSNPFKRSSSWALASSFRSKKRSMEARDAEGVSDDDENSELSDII

Tests used:
[1] = target: DNMT5 (Cryptococcus neoformans) (UniProt J9VI03); experiment: activity assay; settings: 5mC at first C of AscI site (GG[5mC]GCGCC) on top strand from primer SEQ:6; with 50 mM EDTA no activity
[2] = target: DNMT5 C-terminal His-tagged (Cryptococcus neoformans) (UniProt J9VI03); experiment: activity assay; settings: three 5mC on top strand only; bead-immobilised enzyme, anti-mC ELISA; beads alone no signal; 25 C; purified recombinant protein; label: 5'-biotin on bottom strand

Row | Sequence | activity on this sequence [1] | activity on this sequence [2]
1 | CCGGTAGGGGCCCATTATAGCCGAATTCGGCGCGCCAGGTGGCACTTTTCGGGGAAATGTGCGCGGAACCCCTATTTGTTTATTTTTCTAAATACATTCAAATATGTATCCGCTCATGAGACAATAACCCTGATAAATGC (double strand) [hemimethylated AscI substrate 195 bp] | not active | –
2 | GGGCGGCGACCTCGCGGGTTTTCGCTATTTATGAAAATCGTTTCCGGTTTAAGGCGTTTGTCATAACTTAATGTTTTTCCGTTCTTCTTCGTCGACGGGCTCCC (double strand) [hemimethylated DNA sequence 2] | – | active

For some assays here: Negatives hold for the conditions tested.
